Primary screen of a compound library

Source: ChEMBL document CHEMBL3988442, “University of Dundee, Small-Polar-MMV Screening Library” (2021).

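Growth of Mycobacterium tuberculosis over 3 days (7H9 medium with glucose and tyloxapol); the read-out is not stated. Tested at 500 µM. The record gives no direction; compounds that gave an IC50 in retests scored well above the rest, so higher reads as more growth inhibition. About 18,000 compounds were tested under these conditions; 7.9% (about 1,400) showed 50% or more at least once.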

Results are given as percent effect. The record does not define 0% and 100%; most values in the screen are far below 50% and negative numbers occur (in some assays of this library far below -100). This is part of a subset picked to be rich in strong results.

{"compound": "CCCn1cnnc1C(C)NC(=O)c1cnc(O)cn1", "stereo": "centres undefined", "effect": -12.68}
{"compound": "CCC(O)CN1CCN(c2ncccc2Br)CC1", "stereo": "centres undefined", "effect": 53.57}
{"compound": "CN1CC(C#N)CC1=O", "stereo": "centres undefined", "effect": 0.04566}
{"compound": "CC(NC(=O)c1ccc(Br)s1)C(=O)N(CCO)C1CC1", "stereo": "centres undefined", "effect": 24.7}
{"compound": "Cn1nnc(CNC(=O)C2CSc3ccccc3O2)n1", "stereo": "centres undefined", "effect": 42.37}
{"compound": "NC1CN(S(=O)(=O)c2ccc3c(c2)OCCO3)C1", "effect": -4.421}
{"compound": "C[C@H](O)CNC(=O)c1ccc(OCC(F)F)cc1", "effect": -0.1073}
{"compound": "FC(F)Oc1ccc(NCCn2ccnc2)nc1", "effect": 40.37}
{"compound": "COCCN(C)C(=O)Nc1cccc(C)n1", "effect": 11.84}
{"compound": "COCCNC(=O)CN(C)Cc1ccc(C)o1", "effect": 22.02}
{"compound": "NS(=O)(=O)CC1CCN(c2ncc(Br)cn2)CC1", "effect": 78.36}
{"compound": "CC(=O)N(C)C1CCN(Cc2cccc(F)c2)CC1", "effect": 5.571}
{"compound": "CN(C)S(=O)(=O)N(CCO)Cc1ccc(Cl)c(Cl)c1", "effect": 65.65}
{"compound": "CCN1CCN(CC(C)CNc2ncccc2Cl)CC1", "stereo": "centres undefined", "effect": 19.79}
{"compound": "CC1CN(C)CCN1Cc1nnnn1-c1ccccc1", "stereo": "centres undefined", "effect": -1.517}
{"compound": "CC1=CC[C@@H]2CN(C(=O)c3n[nH]c(N)c3Cl)C[C@@H]2C1", "effect": 37.11}
{"compound": "CCNS(=O)(=O)C1CCN(Cc2cccn2C)C1", "stereo": "centres undefined", "effect": 20.93}
{"compound": "CN1C(=O)c2cccn2CC1CN", "stereo": "centres undefined", "effect": 11.34}
{"compound": "CSc1ccc(C(CN)N(C)C)cc1", "stereo": "centres undefined", "effect": 82.12}
{"compound": "CSCCC(O)C(=O)NCCc1cnccn1", "stereo": "centres undefined", "effect": 4.262}
{"compound": "CN1CCCN(C(=O)Nc2cccc(F)c2)CC1", "effect": 5.999}
{"compound": "CN1CCCN(C(=O)c2ccco2)c2ccccc21", "effect": 76.44}
{"compound": "CN(Cc1ccncc1)C(=O)CN", "effect": 7.392}
{"compound": "Cc1nc(C(=O)OCCn2cccn2)cs1", "effect": 15.11}
{"compound": "CC1(c2ccccc2)CNCCO1", "stereo": "centres undefined", "effect": -12.79}
{"compound": "CNCc1cnn(-c2ccccc2)c1", "effect": 7.208}
{"compound": "NCCCc1ccc2c(c1)OCCO2", "effect": 31.09}
{"compound": "NS(=O)(=O)Cc1cccc(NC(=O)N2CCSCC2)c1", "effect": 10.45}
{"compound": "CN(C)c1ncccc1C(=O)NCC[C@@H]1CCCN1", "effect": 0.6256}
{"compound": "COc1ccc(OC)c(NC(=O)COCC(F)(F)F)c1", "effect": 66.49}
{"compound": "COCCNC(=O)c1cc2ccncc2[nH]1", "effect": -9.245}
{"compound": "Cc1ccc(OCC(=O)NC2CCS(=O)(=O)C2)c(Br)c1", "stereo": "centres undefined", "effect": 9.943}
{"compound": "COCC(NC(=O)CNc1ccccc1)C(C)C", "stereo": "centres undefined", "effect": 26.53}
{"compound": "Cc1ccc(C(=O)N2CCCC2c2ccc[nH]2)o1", "stereo": "centres undefined", "effect": 23.49}
{"compound": "Cc1cc(C(C)NC(=O)CN2CSCC2=O)c(C)s1", "stereo": "centres undefined", "effect": 56.28}
{"compound": "CN1N=C(C(=O)NCc2csc(Br)c2)CCC1=O", "effect": 78.8}
{"compound": "COCC(C)(CCO)NCC(=O)Nc1ccccc1I", "stereo": "centres undefined", "effect": 60.8}
{"compound": "CN(Cc1cccn1C)C(=O)c1ccccc1F", "effect": 58.97}
{"compound": "CC(C)NC(=O)NC(=O)C(C)N1CCOCC1", "stereo": "centres undefined", "effect": 4.952}
{"compound": "O=C(c1cc(Cl)c[nH]1)N1CCNCC1", "effect": 11.56}
{"compound": "COc1cc(C(=O)NC(C)CCO)ccc1OC(C)C", "stereo": "centres undefined", "effect": 8.078}
{"compound": "CCOc1ccc(S(=O)(=O)NCCC(C)N)c(C)c1", "stereo": "centres undefined", "effect": 36.8}
{"compound": "CCc1cc(N2CCN(Cc3ncc[nH]3)CC2)ncn1", "effect": 21.46}
{"compound": "[H][C@]12CNC[C@]([H])(CN(S(=O)(=O)c3ccc(F)cc3)C1)O2", "effect": -0.08804}
{"compound": "Cc1noc(-c2ccc(=O)n(CC(C)C)n2)n1", "effect": -16.46}
{"compound": "CCCC(C#N)NC(=O)c1cnn(C)c1", "stereo": "centres undefined", "effect": 8.452}
{"compound": "OC1(c2nc(-c3cnccn3)no2)CCCCC1", "effect": 0.5168}

For reference, 3 entries once more:

* COCCNC(=O)c1cc2ccncc2[nH]1 : -9.245%
* CCC(O)CN1CCN(c2ncccc2Br)CC1 (centres undefined) : 53.57%
* CN1N=C(C(=O)NCc2csc(Br)c2)CCC1=O : 78.8%